Data on two compounds can be found in patent US9708359B2, “Pyrrolopyrimidine nucleosides and analogs thereof” (Chimerix, Inc., priority 2015, dated 2017).

For the data set, the system named is mouse norovirus. As to the kind of experiment: Mouse Norovirus (MNV) assay in RAW cells. To be noted: CC50 divided by EC50, MNV in RAW cells.

Where “and” joins values, the source holds several entries; their conditions need not be identical. Equal entries are not always repeated.

In turn, `C[C@@]1(O)[C@H](O)[C@@H](CO)O[C@H]1n1ccc(N)nc1=O` [2′-C-Methyl Cytidine, reference compound] had an SI of 10.7.

Take `Cc1nc(N)c2c(C(N)=O)cn([C@@H]3O[C@H](CO)[C@@H](O)[C@H]3O)c2n1` [Compound 1, 4-amino-7-((2R,3R,4S,5R)-3,4-dihydroxy-5-(hydroxymethyl)tetrahydrofuran-2-yl)-2-methyl-7H-pyrrolo[2,3-d]pyrimidine-5-carboxamide]: the SI is 57.0 and 54.
